# Experimental data: patent US10874687B1 (Atea Pharmaceuticals, Inc., priority 2020, dated 2020)
# System: HCoV-229E
# Assay type: cell-based, human coronavirus alpha-229E
# Conditions: Alpha-229E in Huh7 cells
compound,measurement,setting,value
CNc1nc(N)nc2c1ncn2[C@@H]1O[C@H](CO[P@@](=O)(N[C@@H](C)C(=O)OC(C)C)Oc2ccccc2)[C@@H](O)[C@@]1(C)F [Compound 1A],Neutral Red SI,CC50/EC50,>50
same,Visual SI,CC50/EC50,>50
same,VYR SI,CC50/EC90,>70
